From patent US20060115815A1 (priority 2002, published 2006)

test system: mutant HIV-1 with M46I/I47V/I50V mutations in the protease gene (I50V #1); settings: I50V (#1) mutant

Row | Structure (SMILES) | I50V (#1) fold change
1 | COc1ccc(S(=O)(=O)N(CC(C)C)CC(O)C(Cc2ccc(C)cc2)NC(=O)OC2COC3OCCC23)cc1 (stereo not shown) | ++ (>10 to ≦30)
2 | COc1ccc(S(=O)(=O)N(CCN2CCOCC2)CC(O)C(Cc2ccc(OCP(=O)(O)O)cc2)NC(=O)OC2COC3OCCC23)cc1 (stereo not shown) | + (>3 to ≦10)
3 | COc1ccc(S(=O)(=O)N(CCN2CCOCC2)CC(O)C(Cc2ccc(OCP(=O)(OCc3ccccc3)OCc3ccccc3)cc2)NC(=O)OC2COC3OCCC23)cc1 (stereo not shown) | + (>3 to ≦10)
4 | COc1ccc(S(=O)(=O)N(Cc2ccccc2)CC(O)C(Cc2ccccc2)NC(=O)OC2COC3OCCC23)cc1 (stereo not shown) | +++ (>30)
5 | COc1ccc(S(=O)(=O)N(CC(O)C(Cc2ccccc2)NC(=O)OC2COC3OCCC23)CC(C)(C)CO)cc1 (stereo not shown) | +++ (>30)
6 | Cc1cccc(C)c1OCC(=O)N[C@@H](Cc1ccc(OCP(=O)(Oc2ccccc2)Oc2ccccc2)cc1)[C@H](O)CN(CC(C)C)S(=O)(=O)c1ccc(N)cc1 | +++ (>30)
7 | Cc1ccc(C(=O)N[C@@H](Cc2ccc(OCP(=O)(Oc3ccccc3)Oc3ccccc3)cc2)[C@H](O)CN(CC(C)C)S(=O)(=O)c2ccc(N)cc2)cc1O | +++ (>30)
8 | CC(C)CN(CC(O)C(Cc1ccc(OCP(=O)(O)O)cc1)NC(=O)OC1COC2OCCC12)S(=O)(=O)c1ccc(N)cc1 (stereo not shown) | + (>3 to ≦10)
9 | CCOC(=O)C(C)OP(=O)(COc1ccc(C[C@H](NC(=O)O[C@H]2CO[C@H]3OCC[C@H]32)[C@H](O)CN(CC(C)C)S(=O)(=O)c2ccccc2)cc1)Oc1ccccc1 (stereo partly shown) | + (>3 to ≦10)
10 | CCOC(=O)C(C)OP(=O)(COc1ccc(C[C@H](NC(=O)O[C@H]2CO[C@H]3OCC[C@H]32)[C@H](O)CN(CC(C)C)S(=O)(=O)c2ccc(F)cc2)cc1)Oc1ccccc1 (stereo partly shown) | + (>3 to ≦10)
11 | CC(C)CN(C[C@@H](O)[C@H](Cc1ccc(OCP(=O)(OCc2ccccc2)OC(C)C(=O)OCc2ccccc2)cc1)NC(=O)O[C@H]1CO[C@H]2OCC[C@H]21)S(=O)(=O)c1ccc(F)cc1 (stereo partly shown) | + (>3 to ≦10)
12 | CC(C)CN(CC(O)C(Cc1ccccc1)NC(=O)OC1COC2OCCC12)S(=O)(=O)c1cccc(O)c1 (stereo not shown) | + (>3 to ≦10)
13 | COc1ccc(S(=O)(=O)N(CC(C)C)CC(O)C(Cc2ccccc2)NC(=O)OC2COC3OCCC23)cc1OCP(=O)(O)O (stereo not shown) | + (>3 to ≦10)
14 | CCOP(=O)(COc1cc(S(=O)(=O)N(CC(C)C)CC(O)C(Cc2ccccc2)NC(=O)OC2COC3OCCC23)ccc1OC)OCC (stereo not shown) | + (>3 to ≦10)
15 | CCOP(=O)(COc1cc(S(=O)(=O)N(CC(C)C)CC(O)C(Cc2ccccc2)NC(=O)OC2COC3OCCC23)ccc1O)OCC (stereo not shown) | + (>3 to ≦10)

same assay, conditions: fold difference in EC50, mutant vs. wild type

Row | Structure (SMILES) | I50V (#1) fold change
16 | CCOC(=O)C(C)OP(=O)(Oc1ccccc1)c1ccc(CN(C)CC(NC(=O)OC2COC3OCCC23)C(O)CN(CC(C)C)S(=O)(=O)c2ccc(OC)cc2)cc1 (stereo not shown) | ++ (>10 to ≦30)
17 | CCOP(=O)(Cc1ccc2c(c1)CCN(CC(NC(=O)OC1COC3OCCC13)C(O)CN(CC(C)C)S(=O)(=O)c1ccc(OC)cc1)C2)OCC (stereo not shown) | + (>3 to ≦10)
18 | CCOC(=O)C(C)OP(=O)(Cc1ccc2c(c1)CCN(C[C@H](NC(=O)O[C@H]1CO[C@H]3OCC[C@H]31)[C@H](O)CN(CC(C)C)S(=O)(=O)c1ccc(OC)cc1)C2)Oc1ccccc1 (stereo partly shown) | + (>3 to ≦10)
19 | CCOC(=O)C(C)OP(=O)(COc1ccc2c(c1)CCN(CC(NC(=O)OC1COC3OCCC13)C(O)CN(CC(C)C)S(=O)(=O)c1ccc(OC)cc1)C2)Oc1ccccc1 (stereo not shown) | + (>3 to ≦10)
20 | COc1ccc(S(=O)(=O)N(CC(C)C)CC(O)C(Cc2ccc(NCP(=O)(OCc3ccccc3)OCc3ccccc3)cc2)NC(=O)OC2COC3OCCC23)cc1 (stereo not shown) | + (>3 to ≦10)
21 | CCOC(=O)C(C)OP(=O)(CCNc1ccc(CC(NC(=O)OC2COC3OCCC23)C(O)CN(CC(C)C)S(=O)(=O)c2ccc(OC)cc2)cc1)Oc1ccccc1 (single isomer, unassigned) [drawing 706] | ++ (>10 to ≦30)
22 | CCOP(=O)(Cc1ccc(CC(NC(=O)OC2COC3OCCC23)C(O)CN(CC(C)C)S(=O)(=O)c2ccc(OC)cc2)cc1)OCC (stereo not shown) [drawing 654 R1=OE R2=OE] | + (>3 to ≦10)
23 | CCCCOC(=O)C(CC(C)C)NP(=O)(COc1ccc(CC(NC(=O)OC2COC3OCCC23)C(O)CN(CC(C)C)S(=O)(=O)c2ccc(OC)cc2)cc1)NC(CC(C)C)C(=O)OCCCC (stereo not shown) [drawing 655 R1=Leu-Bu R2=Leu-Bu] | + (>3 to ≦10)
24 | CCOC(=O)C(C)OP(=O)(CCN(C)Cc1ccc(CC(NC(=O)OC2COC3OCCC23)C(O)CN(CC(C)C)S(=O)(=O)c2ccc(OC)cc2)cc1)Oc1ccccc1 (stereo not shown) [drawing 663 R1=Ph R2=Lac-Et] | + (>3 to ≦10)

test system: mutant HIV-1 with L10I/M46I/I50V mutations in the protease gene (I50V #2); settings: fold difference in EC50, mutant vs. wild type

Row | Structure (SMILES) | I50V (#2) fold change
25 | Cc1cccc(C)c1OCC(=O)N[C@@H](Cc1ccccc1)[C@@H](O)C[C@H](Cc1ccccc1)NC(=O)[C@H](C(C)C)N1CCCNC1=O [Lopinavir] | +++ (>30)
26 | COc1ccc(S(=O)(=O)N(CC(C)C)CC(O)C(Cc2ccc(CNCCP(=O)(O)O)cc2)NC(=O)OC2COC3OCCC23)cc1 (stereo not shown) [drawing 662 R1=H R2=H] | + (>3 to ≦10)
27 | CCOC(=O)C(CC)NP(=O)(CCNCc1ccc(C[C@H](NC(=O)O[C@H]2CO[C@H]3OCC[C@H]32)[C@H](O)CN(CC(C)C)S(=O)(=O)c2ccc(OC)cc2)cc1)Oc1ccccc1 (stereo partly shown) [drawing 662 R1=Ph R2=Aba-Et] | + (>3 to ≦10)
28 | CCOC(=O)C(CC)OP(=O)(CCNCc1ccc(C[C@H](NC(=O)O[C@H]2CO[C@H]3OCC[C@H]32)[C@H](O)CN(CC(C)C)S(=O)(=O)c2ccc(OC)cc2)cc1)Oc1ccccc1 (stereo partly shown) [drawing 662 R1=Ph R2=Hba-Et] | ++ (>10 to ≦30)
